Measurements reported in patent US20080181906A1, “Polyvalent Immunogen” (priority 2003, published 2008).

Key:
HIV primary isolates = assay: Neutralization of 19 HIV primary isolates by monovalent guinea pig sera (single infection cycle neutralization assay or fusion inhibition assay); format: cell-based, HIV-1
[1] = tested on: human PB lymphocytes and monocytes; assay: Peptide membrane binding assay; conditions: compared with the peptide without E9V; FIG. 3

KQIINMWQVVGKAMYA-RPNNNTRKSIHIGPGRAFYATE
HIV primary isolates neutralized of those tested (HIV primary isolates; also when criteria increased to greater than 80% neutralization vs. 50% neutralization): 19/19
primary isolates neutralized out of 19 primary isolates tested (HIV primary isolates; monovalent serum from individual guinea pigs immunized with each peptide, listed as 62.19): 19 of 19

KQIINMWQVVGKAMYA-TRPNNNTRRRLSIGPGRAFYARR
binding of peptide to human PB lymphocytes and monocytes [1]: bound better
